Data as given in PubChem BioAssay AID624099 (ICCB-Longwood, 2012)

Screen: 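Knock-downs relieving repression by E2 of an HPV18 LCR luciferase reporter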 (primary screen)
System: human C33A cervical carcinoma cells (HPV-negative) stably expressing BPV1 E2 and an HPV18 LCR luciferase reporter
Knock-down reagent: siRNA pool against human genes, 40 nM
Timing: 72 h
Read-out: 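HPV18 LCR reporter light per well, converted to plate-wise z-scores that exclude control wells, and averaged over triplicate plates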
Direction: mean z-score and z-score: higher = stronger reporter signal, weaker E2 silencing
Hit rule: 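Hit if mean z-score reaches 2 and two or more of three replicate z-scores also reach 2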
In all, the deposit lists about 21,000 reagents; this is a part drawn at random. 497 of them (2.4%) count as active. 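Higher z means weaker E2 silencing; only reporter increases were scored, and knock-downs that hurt cell survival may mask genuine repressor factors.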

no.	gene	mean z-score	z-score, replicate A	z-score, replicate B	z-score, replicate C	call
1	LINC02072 (long independently transcribed non-coding RNA 2072)	0.44	0.86	0.6	-0.15	inactive
2	POSTN (periostin)	-0.05	-0.03	-0.41	0.27	inactive
3	EIF5B (eukaryotic translation initiation factor 5B)	-1.08	-0.94	-1.04	-1.26	inactive
4	LOC400890 (retired record)	0.03	-0.46	0.12	0.43	inactive
5	IFRD2 (interferon related developmental regulator 2)	1.12	1.16	1.44	0.74	inactive
6	EXOSC2 (exosome component 2)	-0.86	-0.97	-0.74	-0.87	inactive
7	RAC3 (Rac family small GTPase 3)	0.37	0.51	0.44	0.16	inactive
8	LOC402269 (retired record)	-0.46	-0.64	-0.38	-0.35	inactive
9	MTNR1A (melatonin receptor 1A)	-0.2	0.07	-0.27	-0.41	inactive
10	SMAD4 (SMAD family member 4)	0.27	0.17	0.75	-0.12	inactive
11	ING1 (inhibitor of growth family member 1)	-0.97	-0.75	-1	-1.14	inactive
12	C20orf96 (chromosome 20 open reading frame 96)	-0.02	-0.15	0.03	0.06	inactive
13	PCDH11X (protocadherin 11 X-linked)	0.24	0.33	0.09	0.29	inactive
14	RACGAP1P1 (Rac GTPase activating protein 1 pseudogene 1)	-1.35	-1.55	-1.23	-1.28	inactive
15	ADAM30 (ADAM metallopeptidase domain 30)	0.47	0.77	0.35	0.29	inactive
16	SPNS1 (SPNS lysolipid transporter 1, lysophospholipid)	-1.11	-1.22	-1.11	-0.99	inactive
17	NDRG1 (N-myc downstream regulated 1)	-0.71	-0.76	-0.62	-0.74	inactive
18	ATRAID (all-trans retinoic acid induced differentiation factor)	-0.01	-0.03	-0.1	0.09	inactive
19	UBE2D4 (ubiquitin conjugating enzyme E2 D4)	0.56	0.59	0.38	0.72	inactive
20	UFC1 (ubiquitin-fold modifier conjugating enzyme 1)	-0.8	-0.1	-0.72	-1.56	inactive
21	PAQR4 (progestin and adipoQ receptor family member 4)	2.4	2.25	2.73	2.24	active
22	IL7R (interleukin 7 receptor)	0.37	0.41	0.3	0.39	inactive
23	PSG3 (pregnancy specific beta-1-glycoprotein 3)	0.9	0.82	1.09	0.78	inactive
24	CIAPIN1 (cytokine induced apoptosis inhibitor 1)	-0.63	-0.44	-0.58	-0.88	inactive
25	ADH1A (alcohol dehydrogenase 1A (class I), alpha polypeptide)	-0.09	0.14	-0.26	-0.14	inactive
26	GPR153 (G protein-coupled receptor 153)	-0.35	-0.35	-0.19	-0.51	inactive
27	PRAP1 (proline rich acidic protein 1)	3.56	2.73	3.5	4.45	active
28	MGLL (monoglyceride lipase)	-0.99	-1.13	-0.89	-0.94	inactive
29	UBE2E2 (ubiquitin conjugating enzyme E2 E2)	0.1	0.18	0.2	-0.09	inactive
30	APOBEC3H (apolipoprotein B mRNA editing enzyme catalytic subunit 3H)	1.46	0.75	1.84	1.79	inactive
31	TENT5A (terminal nucleotidyltransferase 5A)	-1.4	-1.77	-1.47	-0.95	inactive
32	NARS2 (asparaginyl-tRNA synthetase 2, mitochondrial)	-0.32	-0.42	-0.25	-0.3	inactive
33	ZNF296 (zinc finger protein 296)	0.81	0.82	0.76	0.85	inactive
34	EFCAB7 (EF-hand calcium binding domain 7)	-0.55	-0.58	-0.48	-0.6	inactive
35	IL5 (interleukin 5)	-0.79	-0.94	-0.69	-0.73	inactive
36	MAGEB2 (MAGE family member B2)	0.37	0.41	0.39	0.3	inactive
37	CHRM1 (cholinergic receptor muscarinic 1)	0.33	0.34	0.35	0.31	inactive
38	IFITM2 (interferon induced transmembrane protein 2)	-0.05	0.07	-0.19	-0.04	inactive
39	LOC389019 (retired record)	0.19	0.18	0.33	0.07	inactive
40	ERLIN2 (ER lipid raft associated 2)	-1.12	-1.03	-1.29	-1.04	inactive
41	KCTD11 (potassium channel tetramerization domain containing 11)	0.56	0.75	0.62	0.3	inactive
42	BTRC	-0.84	-1.07	-0.71	-0.75	inactive
43	SLC2A5	0.83	0.84	0.92	0.73	inactive
44	TSPAN19 (tetraspanin 19)	0.07	-0.09	0.2	0.09	inactive
45	MED7 (mediator complex subunit 7)	-2.26	-2.28	-2.34	-2.16	inactive
46	DNAAF10 (dynein axonemal assembly factor 10)	-0.04	-0.09	-0.26	0.23	inactive
47	PTGER2 (prostaglandin E receptor 2)	1.05	0.73	1.03	1.39	inactive
48	LOC400742 (retired record)	0.55	1.08	0.57	0.01	inactive
49	LOC388586 (retired record)	1.89	2.08	1.9	1.71	inactive
50	IGFN1	0.65	0.88	0.17	0.88	inactive
51	PPT1 (palmitoyl-protein thioesterase 1)	0.11	0.39	-0.07	0	inactive
52	ALAS1 (5'-aminolevulinate synthase 1)	0.54	0.41	0.58	0.62	inactive
53	ZFP3 (ZFP3 zinc finger protein)	-0.46	-0.87	-0.16	-0.36	inactive
54	MUC1 (mucin 1, cell surface associated)	0.03	0.43	-0.13	-0.2	inactive
55	HECW2	-1.51	-1.88	-1.08	-1.57	inactive
56	DDX18 (DEAD-box helicase 18)	-0.96	-0.51	-1.31	-1.06	inactive
57	PGBD2 (piggyBac transposable element derived 2)	-0.05	0.04	-0.45	0.26	inactive
58	AK8 (adenylate kinase 8)	-0.13	-0.07	0	-0.32	inactive
59	ZNF626 (zinc finger protein 626)	1.52	1.71	1.75	1.11	inactive
60	HPSE2 (heparanase 2 (inactive))	-0.23	-0.34	-0.43	0.08	inactive
61	SRF (serum response factor)	0.11	0.1	0.34	-0.1	inactive
62	ZNG1E (Zn regulated GTPase metalloprotein activator 1E)	0.3	0.13	0.49	0.29	inactive
63	TPX2 (TPX2 microtubule nucleation factor)	0.56	0.56	0.47	0.66	inactive
64	TMEM230 (transmembrane protein 230)	0.26	0.14	0.19	0.45	inactive
65	VGLL1 (vestigial like family member 1)	-0.4	-0.12	-0.89	-0.17	inactive
66	ACTMAP (actin maturation protease)	-0.57	-0.46	-0.54	-0.71	inactive
67	LOC400481 (retired record)	-0.59	-1.02	-0.16	-0.59	inactive
68	CORO1C (coronin 1C)	-1.07	-1.54	-0.9	-0.75	inactive
69	RSL24D1 (ribosomal L24 domain containing 1)	-0.18	-0.15	0.22	-0.63	inactive
70	ANP32D (acidic nuclear phosphoprotein 32 family member D)	-0.71	-0.62	-0.96	-0.56	inactive
71	MCMBP (minichromosome maintenance complex binding protein)	1.44	1.99	1.36	0.98	inactive
72	GLIPR2 (GLI pathogenesis related 2)	-0.28	-0.49	-0.53	0.18	inactive
73	IL17RD (interleukin 17 receptor D)	-0.08	-0.26	-0.26	0.28	inactive

Records listed above marked active (2):
gene	mean z-score	z-score, replicate A	z-score, replicate B	z-score, replicate C	call
PAQR4 (progestin and adipoQ receptor family member 4)	2.4	2.25	2.73	2.24	active
PRAP1 (proline rich acidic protein 1)	3.56	2.73	3.5	4.45	active
